According to patent publication US20260234220A1 (OSPEDALE SAN RAFFAELE S R L, published 2026):

Target: S protein of SARS-CoV-2 Omicron on pseudotyped particles (SARS-CoV-2, UniProt P0DTC2 14-1273)
Experiment: cell-based or functional assay

Row | Binder | neutralizing activity expressed as IC50 µg/ml (pseudovirus, luciferase) [µg/mL]
1 | IgG BU.7 (antibody, V domains shown) VH: LEWGPGLVKPSETLSLTCTVSGGSISSINYYWVWIRQPPGKGLEWIGNINYSGTTNYNPSLKSRVTISVDTSKNQFSLKLSSVTAADTAVYYCARQTYYYDRRGYYRPEPIEHWGQGTLVTVSS VL: ELVMTQSPSFLSASVGDRVTITCRASQDVRSFLHWYQQRPGKAPKLLIYAASMVSSEVPSRFSGSGSETDFTLTIDGLQPEDVATYFCQQTYDTPLTFGGGTAVDIK | 1.8
2 | IgG BU.54 (antibody, V domains shown) VH: LEWGPGLVKASQTLSLTCTVSGGSISSRNFYWSWIRQPGGKGLEWIGRIYTSGSTNYNPSLKSRVTISLDTSKSQFSLKLSSVTAADTAVYYCARGTFYYDRSGNGRLDPLDYWGQGTLVTVS VL: ELVMTQSPSSLSASVGDRVTITCQASQDISNYLNWYQQKPGKAPKLLIYDASNLETGVPSRFSGSGFGTHFTLTISSLQPEDFATYYCQQHDNLVTFGGGTKVEIK | 0.5
